Pooled drug test results. Numbers come from NIAID ChemDB, via PubChem.

Shared fields: tests in culture; organism: Mycobacterium tuberculosis

Fold resistance has wild type as its base. Percent inhibition refers to the dose given; in toxicity tests it is the harm to the cells. MIC50, MIC90 and the like: level of inhibition, or share of isolates inhibited. Blank or dashed fields: not listed here. Conditions beyond the fields shown may differ between rows. MIC bound: limit read from a one-dose screen. Two numbers with a dash give a range or band. ECn: concentration that inhibits the pathogen or its effect by n%.

smiles,cells,mutations,setting,dose,measure,method,strain,value
CC[C@H]1OC(=O)[C@H](C)[C@@H](O[C@H]2C[C@@](C)(OC)[C@@H](O)[C@H](C)O2)[C@H](C)[C@@H](O[C@@H]2O[C@H](C)C[C@H](N(C)C)[C@H]2O)[C@](C)(OC)C[C@@H](C)C(=O)[C@H](C)[C@@H](O)[C@]1(C)O,-,-,-,-,Median MIC,-,H37Rv,8 µg/mL
CCc1nc2ccccc2n1CCCCNc1ccc(OC)cc1,-,-,-,-,MIC90,turbidity / fluorescence,H37Rv,>100 µM
NC(=O)c1cnccn1,-,-,-,-,MIC,-,W4693 (niacin-negative),>2048 µg/mL
CC(NCCNCCc1ccccc1)c1cccc2ccccc12,-,-,-,-,MIC,-,-,50 µM
NC(=S)N/N=C/c1nc2c3cccnc3ccc2n1Cc1ccccc1,-,-,-,-,MIC bound,BACTEC,H37Rv,>12.5 µg/mL
CC(=O)NC[C@H]1CN(c2ccc(N3CCN(c4ccc([N+](=O)[O-])s4)CC3)c(F)c2)C(=O)O1,-,-,-,-,MIC,-,ATCC,<0.125 µg/mL
C/C(=N\NC(=O)c1ccncc1)c1ccccc1F,-,-,-,-,MIC,-,Isoniazid-resistant,>6.25 µg/mL
NC(=O)c1cnccn1,-,-,-,-,MIC,-,Isolate 11552 INH-resistant,>300 µg/mL
C=CCOc1cc2oc3cc(O)c(CCC(C)C)c(O)c3c(=O)c2c(CCC(C)C)c1OC,-,-,-,-,MIC,resazurin,M-4,3.12 µg/mL
C[C@H]1COc2c(N3CCN(C)CC3)c(F)cc3c(=O)c(C(=O)O)cn1c23,-,-,-,-,MIC,-,CSU25,≤0.125 µg/mL
N[C@@H]1CN(c2c(F)cc3c(=O)c(C(=O)O)cn([C@@H]4C[C@@H]4F)c3c2Cl)CC12CC2,-,Gyrase Ala90Val,-,-,MIC,resazurin,Clinical strain,0.125–0.5 µg/mL
CCOC(=O)Nc1cc(NC(c2ccc(Cl)cc2)c2ccc(Cl)cc2)c2c(n1)NCN2,-,-,-,12.5 µg/mL,inhibition,-,H37Rv,55%
COc1ccc(C2CC(=O)c3cc(C(=O)O)ccc3O2)cc1,-,-,-,12.5 µg/mL,inhibition,-,H37Rv,2%
CO[C@H]1/C=C/O[C@@]2(C)Oc3c(C)c(O)c4c(O)c(c(/C=N/N5CCN(C6CCCC6)CC5)c(O)c4c3C2=O)NC(=O)/C(C)=C\C=C\[C@H](C)[C@H](O)[C@@H](C)[C@@H](O)[C@@H](C)[C@H](O)[C@@H]1C,-,-,-,-,MIC,-,Isolate 900145 drug-susceptible,0.5 µg/mL
CCOC(=O)Nc1cc(Nc2ccc(Cl)cc2)c2nc(-c3ccc(Cl)cc3)c(-c3ccc(Cl)cc3)nc2n1,-,-,-,-,EC50,-,H37Rv,>12.5 µg/mL
NNC(=O)c1ccncc1,-,-,-,-,MIC,-,2S,0.1 µg/mL
CC(=O)Nc1ccc(/C=N/NC(N)=S)cc1,-,-,-,-,MIC,-,Isolate C drug-resistant,30 µg/mL
CCCCCCCCCCCNCCNC(C)CCc1ccccc1,-,-,-,-,MIC,-,-,25 µM
C[C@H]1COc2c(N3CCN(C)CC3)c(F)cc3c(=O)c(C(=O)O)cn1c23,-,-,-,-,MIC,-,H37Rv,0.5 µg/mL
Cc1ccc(NCCN(C)C)c2c(=O)c3cccc(O)c3sc12,VERO,-,-,-,MIC,BACTEC,H37Rv,12.5 µg/mL
COC(=O)C1=C(C)N(c2ccc(OC)cc2)C(C)=C(C(=O)OC)C1c1ccccc1,-,-,-,-,MIC,-,H37Rv,>6.25 µg/mL
CO[C@H]1/C=C/O[C@@]2(C)Oc3c(C)c(O)c4c(O)c(c5c(c4c3C2=O)NC2(CCN(CC(C)C)CC2)N=5)=NC(=O)/C(C)=C\C=C\[C@H](C)[C@H](O)[C@@H](C)[C@@H](O)[C@@H](C)[C@H](OC(C)=O)[C@@H]1C,-,-,-,-,MIC,-,Erdman,≤0.125 µg/mL
Nc1nc(NCCO)c(NC=O)c(=O)[nH]1,-,-,-,12.5 µg/mL,inhibition,BACTEC,H37Rv,24%
COc1ccc(C2CC(=O)c3ccc(F)cc3O2)cc1,-,-,-,12.5 µg/mL,inhibition,-,H37Rv,0%
NC[C@@H]1O[C@H](O[C@H]2[C@@H](O)[C@H](O[C@@H]3[C@@H](O)[C@H](N)C[C@H](N)[C@H]3O[C@H]3O[C@H](CO)[C@@H](O)[C@H](O)[C@H]3N)O[C@@H]2CO)[C@H](N)[C@@H](O)[C@@H]1O,-,-,-,-,Mean MIC,-,H37Rv,2.5 µg/mL
CC[C@@H](CO)NCCN[C@@H](CC)CO,-,-,-,-,MIC,resazurin,M-4,>8 µg/mL
CC(NNC(=O)c1ccncc1)c1ccc(Cl)cc1Cl,Macrophages,-,inside macrophages,-,EC50,colony count,Erdman,<1.38 µg/mL
O=C1C=C(Nc2cccc(NC3=CC(=O)C(=O)c4ccccc43)n2)c2ccccc2C1=O,-,-,-,6.25 µg/mL,inhibition,resazurin,H37Rv,97%
C[C@@H]1CN(c2c(F)c(N)c3c(=O)c(C(=O)O)cn(C4CC4)c3c2F)C[C@H](C)N1,-,-,-,-,MIC,-,CSU21,0.25 µg/mL
Nc1nc(NC(=O)OCc2ccccc2)cc(Cl)c1[N+](=O)[O-],-,-,-,-,EC50,-,H37Rv,>12.5 µg/mL
NNC(=O)c1ccncc1,-,-,-,-,MIC,-,Strain 23,0.06 µg/mL
C[C@@H]1CN(c2c(F)c(N)c3c(=O)c(C(=O)O)cn(C4CC4)c3c2F)C[C@H](C)N1,-,-,-,-,Mean MIC,-,H37Rv,0.25 µg/mL
C[C@@H]1C[C@@]2(O[C@@H]2C)C(=O)O[C@@H]2CCN3CC=C(COC(=O)[C@]1(C)O)[C@H]23,-,-,-,-,MIC bound,BACTEC,H37Rv,>12.8 µg/mL
CCc1nc2ccc(C)cc2n1CCCCOc1ccccc1,-,QcrB M342T,-,-,fold resistance,turbidity / fluorescence,H37Rv,56
N[C@@H]1CONC1=O,-,-,-,-,Mean MIC,-,H37Rv,28.13 µg/mL
CC1=CC(=O)C2=C(C)CCC3C(C)C(=O)OC3C12,-,-,-,-,MIC,BACTEC,H37Rv,≥12.8 µg/mL
CCOC(=O)Nc1cc(N)c2nc(CN(C)c3ccccc3)cnc2n1,-,-,-,-,EC50,-,H37Rv,>12.5 µg/mL
CC[C@@H](CO)NCCN[C@@H](CC)CO,-,-,-,-,MIC,-,Isolate 5,8 µg/mL
COc1cc(OC)c2ssc3c(OC)cc(OC)c4ssc1c2-c43,-,-,-,-,MIC bound,BACTEC,H37Rv,>12.5 µg/mL
NNC(=O)c1ccncc1,-,-,-,-,MIC,-,TLM-resistant,0.1 µg/mL
Cc1onc(-c2ccccc2Cl)c1C(=O)N[C@@H]1C(=O)N2[C@@H]1SC(C)(C)[C@@H]2C(=O)O,-,-,-,-,Median MIC,-,H37Ra,128 µg/mL
CC(=O)c1cc(C(C)=O)c(CC(=O)C(=O)Nc2ccc(Cl)cc2Cl)nc1CC(=O)C(=O)Nc1ccc(Cl)cc1Cl,-,-,-,-,MIC bound,BACTEC,H37Rv,>12.5 µg/mL
CCCCC(CC)CN1CN(CC(CC)CCCC)CC(C)(NCCN[C@@H](COC)[C@@H](O)c2ccccc2)C1,-,-,-,-,MIC,-,-,25 µM
CN[C@@H]1[C@H](O[C@H]2[C@H](O[C@H]3[C@H](O)[C@@H](O)[C@H](N=C(N)N)[C@@H](O)[C@@H]3N=C(N)N)O[C@@H](C)[C@]2(O)C=O)O[C@@H](CO)[C@H](O)[C@H]1O,-,-,-,-,Median MIC,-,H37Ra,0.56 µg/mL
C/C(=N\NC(=O)c1ccncc1)c1ccc(F)cc1,-,-,-,-,MBC,-,Isoniazid-resistant,>1.6 µg/mL
Cc1cc(Cc2cc(C)c(O)c(C(=O)O)c2)cc(C(=O)O)c1O,-,-,-,12.5 µg/mL,inhibition,BACTEC,H37Rv,0%
CC[C@H]1OC(=O)[C@H](C)[C@@H](O[C@H]2C[C@@](C)(OC)[C@@H](O)[C@H](C)O2)[C@H](C)[C@@H](O[C@@H]2O[C@H](C)C[C@H](N(C)C)[C@H]2O)[C@](C)(OC)C[C@@H](C)C(=O)[C@H](C)[C@@H](O)[C@]1(C)O,-,-,-,-,MIC,-,Isolate 2227,>4 µg/mL
O=C(/C=C/c1ccccc1)c1ccc(Cl)cc1O,-,-,-,-,EC50,-,H37Rv,<12.5 µg/mL
NC[C@H]1O[C@H](O[C@H]2[C@H](O)[C@@H](O[C@H]3O[C@H](CO)[C@@H](O)[C@H](N)[C@H]3O)[C@H](N)C[C@@H]2N)[C@H](O)[C@@H](O)[C@@H]1O,-,-,-,-,MIC,-,Isolate 7,>128 µg/mL
O=c1c2ccccc2nc2sc3nc4ccccc4c(=O)n3n12,-,-,-,-,MIC bound,BACTEC,H37Rv,>12.5 µg/mL
CC(C)(CO)NCCNCCN1CCOCC1,-,-,-,-,MIC,-,-,50 µM
COc1cc(CCC(C)=O)ccc1OC(=O)c1c(-c2c(F)cccc2Cl)noc1C,-,-,-,-,MIC bound,resazurin,H37Rv,>6.25 µg/mL
NNC(=O)c1ccncc1,-,-,-,-,Mean MIC,-,H37Ra,0.05 µg/mL
NNC(=O)/C(NC(=O)c1ccccc1)=C(\N)c1cccc([N+](=O)[O-])c1,-,-,-,-,MIC bound,BACTEC,H37Rv,>12.5 µg/mL
COc1ccc(C2C(C(=O)Nc3cc(C)ccc3C)=C(C)NC(C)=C2C(=O)Nc2cc(C)ccc2C)cc1OC,-,-,-,-,MIC,-,H37Rv,>6.25 µg/mL
Nc1c([N+](=O)[O-])ccc2c1Oc1ccccc1O2,-,-,-,6.25 µg/mL,inhibition,resazurin,H37Rv,12%
CCOC(=O)Nc1cc(NC(C)CCCN(CC)CC)c2nccnc2n1,-,-,-,-,EC50,-,H37Rv,>12.5 µg/mL
C=CCN(CCNCCC(c1ccccc1)c1ccccc1)C1CCCC1,-,-,-,-,MIC,-,-,25 µM
CN[C@@H]1[C@H](O[C@H]2[C@H](O[C@H]3[C@H](O)[C@@H](O)[C@H](N=C(N)N)[C@@H](O)[C@@H]3N=C(N)N)O[C@@H](C)[C@]2(O)C=O)O[C@@H](CO)[C@H](O)[C@H]1O,-,MDR,-,-,MIC,resazurin,M-4,>8 µg/mL
CC(C)c1ccc2c(c1)CC[C@H]1[C@](C)(CNCCNCC3CCCO3)CCC[C@]21C,-,-,-,-,MIC,-,-,25 µM
C[C@H]1COc2c(N3CCN(C)CC3)c(F)cc3c(=O)c(C(=O)O)cn1c23,-,-,-,-,MIC,-,Isolate 3,2 µg/mL
COc1cccc(C2C(C(=O)Nc3ccc([N+](=O)[O-])cc3)=C(C)NC(C)=C2C(=O)Nc2ccc([N+](=O)[O-])cc2)c1,-,-,-,-,MIC,-,H37Rv,>6.25 µg/mL
CCc1nc2ccc(C)cc2n1CCCSc1ccc(OC)cc1,-,WT,-,-,MIC90,turbidity / fluorescence,H37Rv,4.6 µM
CCCCCCCSC(=S)NC1c2ccccc2Oc2ccccc21,-,-,-,128 µg/mL,inhibition,BACTEC,H37Rv,100%
CCCCCCCCCCCNCCNCCC(c1ccccc1)c1ccccc1,-,-,-,-,MIC,-,-,12.5 µM
CCOc1cc2oc3cc(O)c(CCC(C)C)c(O)c3c(=O)c2c(CCC(C)C)c1OC,-,-,-,-,MIC,resazurin,M8,3.12 µg/mL
CC(NC(=O)C(Cc1ccccc1)NC(=O)c1ccc[n+](Cc2ccccc2)c1)C(N)=O.[Br-],-,-,-,12.5 µg/mL,inhibition,BACTEC,H37Rv,4%
COc1ccc(C2CC(=O)c3ccccc3O2)cc1,-,-,-,-,EC50,-,H37Rv,>12.5 µg/mL
CO[C@H]1/C=C/O[C@@]2(C)Oc3c(C)c(O)c4c(O)c(c(/C=N/N5CCN(C6CCCC6)CC5)c(O)c4c3C2=O)NC(=O)/C(C)=C\C=C\[C@H](C)[C@H](O)[C@@H](C)[C@@H](O)[C@@H](C)[C@H](OC(C)=O)[C@@H]1C,-,-,-,-,Median MIC,-,H37Ra,≤0.006 µg/mL
CCOc1ccccc1CNCCNC(C)c1cccc2ccccc12,-,-,-,-,MIC,-,-,50 µM
O=C1CN=C(c2ccccc2)O1,-,-,-,-,MIC bound,BACTEC,H37Rv,>12.5 µg/mL
O=C(NNCc1ccccc1F)c1ccncc1,-,-,-,-,MBC,-,Isoniazid-resistant,>6.25 µg/mL
CCc1nc2ccc(C)cc2n1CCCCNc1ccc(C)cc1,-,QcrB M342T,-,-,MIC90,turbidity / fluorescence,H37Rv,48 µM
Nc1c(Cl)c(Cl)nc(C(=O)O)c1Cl,-,-,-,-,MIC bound,resazurin,H37Rv,>6.25 µg/mL
C[C@H]1COc2c(N3CCN(C)CC3)c(F)cc3c(=O)c(C(=O)O)cn1c23,-,-,-,-,MIC,-,Strain 40,0.25 µg/mL
C/C(=N\NC(=O)c1ccncc1)c1ccccc1,-,-,-,-,MIC,-,H37Rv (ethionamide-resistant),32 µg/mL
O=C1N=C2Sc3ccc4ccccc4c3N2C1=O,-,-,-,-,MIC bound,resazurin,H37Rv,>6.25 µg/mL
O=C(NNCc1cccc(C(F)(F)F)c1)c1ccncc1,Macrophages,-,inside macrophages,-,EC90,colony count,Erdman,0.005 µg/mL
CN(C)CNC(=S)S,-,-,-,-,MIC bound,BACTEC,H37Rv,≤12.5 µg/mL
C=CCOc1cc2oc3cc(OCC=C)c(C(C)=O)c(CCC(C)C)c3c(=O)c2c(O)c1CCC(C)C,-,-,-,-,MIC,resazurin,H37Ra,>200 µg/mL
O=C(O)c1cn(C2CC2)c2c(F)c(N3CCSCC3)c(F)cc2c1=O,-,-,-,-,MIC,-,CSU12,0.5 µg/mL
C=CCOc1cc2oc3cc(O)c(CCC(C)C)c(O)c3c(=O)c2c(CCC(C)C)c1C(C)=O,-,-,-,-,MIC,resazurin,H37Ra,0.78 µg/mL
O=c1c2ccccc2oc2cccc(NCCCN3CCN(CCCNc4cccc5oc6ccccc6c(=O)c45)CC3)c12,-,-,-,-,MIC bound,BACTEC,H37Rv,>12.5 µg/mL
CC1=C(C(=O)Nc2cc(C)ccc2C)C(c2ccccc2O)C(C(=O)Nc2cc(C)ccc2C)=C(C)N1,-,-,-,-,MIC,-,H37Rv,>12.5 µg/mL